Anti-infective test results gathered from many reports (values: NIAID ChemDB through PubChem).

Shared fields: toxicity to cultured cells; cells: HEK 293; read-out: CC50

Conditions beyond the fields shown may differ between rows.

smiles,method,result
C=C/C(C)=C/C[C@H]1C(=C)CCC2[C@]1(C)CCC[C@]2(C)C(=O)O,-,205.6 µg/mL
C[C@H]1[C@H](O)C(=O)CC2[C@]3(C)CC[C@@]4(C)C5CC(C)(C)CC[C@]5(C)CC[C@]4(C)C3CC[C@@]21C,sulforhodamine / absorbance,>50 µM
O=C(/C=C/c1ccc(O)c(O)c1)[Se]c1ccccc1,WST,92.3 µM
Nc1nc2ccc(N(Cc3cccc(Oc4ccccc4)c3)Cc3cccc(Oc4ccccc4)c3)cc2[nH]1,-,4 µM
O=c1c2cc(O)ccc2oc2cc(O)cc(O)c12,sulforhodamine / absorbance,>50 µM
CC/C=C\C[C@@H]1[C@@H](CC(=O)OC)CC[C@H]1O,ATP,>26 µM
Nc1ccn([C@@H]2CS[C@H](CO)O2)c(=O)n1,WST,>100 µM
CCCCCCCCCC(=O)OC1O[C@@H]2OC3(C)CCC4[C@H](C)CCC([C@H]1C)[C@]42OO3,ATP / luminescence,>26 µM
NCCC1=c2c(O)c3c(c(O)c2N=C1)=NC=CS3(=O)=O.O=C(O)C(F)(F)F,resazurin / fluorescence,3.9 µM
Cc1[nH]c2ccccc2c1CC(=O)NC(Cc1ccccc1)C(=O)N(C)c1ccccc1,MTT,>50 µM
N=C(N)c1ccc2cc(C#Cc3cccc(OCc4ccccc4)c3)ccc2c1,-,1.9 µM
O=C1c2c(O)cc(O)cc2O[C@H](c2ccc(O)cc2)[C@H]1c1c(O)cc(O)c2c(=O)cc(-c3ccc(O)c(O)c3)oc12,sulforhodamine / absorbance,>50 µM
OC1C(O)C(O)C(O)C(O)C1O,ATP,>26 µM
N=C(N)c1ccc2cc(NC(=O)Nc3ccc(N)cc3)ccc2c1,-,>100 µM
C[C@@H]1CCC2[C@@H](C)[C@@H](OCCN3CCCCC3)O[C@@H]3OC4(C)CCC1[C@@]23OO4,ATP / luminescence,>31.7 µM
C/C=C/c1ccc2c(c1)[C@H](C)[C@@H](c1ccc(O)cc1)O2,sulforhodamine / absorbance,41.7 µM
COc1ccc(-c2cc(OC)c(O)c(OC)c2O)cc1,sulforhodamine / absorbance,>50 µM
C[C@H]1C(OC(=O)c2ccc([N+](=O)[O-])cc2)O[C@@H]2OC3(C)CCC4[C@H](C)CCC1[C@]42OO3,ATP / luminescence,>23.8 µM
O=C(/C=C/c1ccccc1)[Se]c1ccccc1,WST,>100 µM
CC1(C)CC[C@]2(C(=O)O)CC[C@]3(C)C(=CC[C@@H]4[C@@]5(C)C[C@@H](O)[C@H](O)[C@@](C)(CO)[C@@H]5CC[C@]43C)[C@@H]2C1,ATP,>26 µM
Nc1nc(NC2CC2)c2ncn([C@H]3C=C[C@@H](CO)C3)c2n1,WST,>100 µM
C[N+]1=c2cc(NCCc3ccc(O)cc3)c(O)c3c2=C(C=N3)CC1,resazurin,1.2 µM
COc1ccc(/C=C/C=C/C(=O)[Se]c2ccccc2)cc1,WST,>100 µM
O=C(O)C(=O)CC(=O)c1cc(OCc2ccccc2)cc(OCc2ccccc2)c1,-,>100 µM
CN1CCc2cn(C)c3c2C1=CC(=O)C3=O,resazurin,>120 µM
CC1Oc2cc(O)c3c(=O)c4ccc(O)c(O)c4oc3c2C1(C)C,sulforhodamine / absorbance,6.12 µM
O=C(NC(=S)Nc1ccc(Br)cn1)c1ccccc1[N+](=O)[O-],MTT,62.6 µM
NCCC1=c2c(O)c3c(c(O)c2N=C1)=NCCS3(=O)=O.O=C(O)C(F)(F)F,resazurin / fluorescence,>40 µM
CC(/C=C/C=C(\C)CC(=O)O)=C\C=C\C=C(C)\C=C\C(C)=C(/C)C(=O)O,ATP,>26 µM
O=C(/C=C/C=C/c1ccc(O)c(O)c1)[Se]c1ccccc1,WST,>100 µM

A second listing of 4 rows from above:

smiles	method	result
Nc1ccn([C@@H]2CS[C@H](CO)O2)c(=O)n1	WST	>100 µM
C=C/C(C)=C/C[C@H]1C(=C)CCC2[C@]1(C)CCC[C@]2(C)C(=O)O	-	205.6 µg/mL
C[N+]1=c2cc(NCCc3ccc(O)cc3)c(O)c3c2=C(C=N3)CC1	resazurin	1.2 µM
NCCC1=c2c(O)c3c(c(O)c2N=C1)=NC=CS3(=O)=O.O=C(O)C(F)(F)F	resazurin / fluorescence	3.9 µM

CCn: concentration that lowers growth or viability of the cells by n%. Blank or dashed fields: not listed here.